# Results published in article PMC7806604, “Structural and functional analysis of the Francisella lysine decarboxylase as a key actor in oxidative stress resistance” (2021).
# Target: Francisella novicida lysine decarboxylase LdcF (Francisella novicida)
# Assay: crystal structure
substance,measurement,value
Francisella novicida lysine decarboxylase LdcF (enzyme),stoichiometry N,10
